Compound potency records, mixed from different reports. Data source: NIAID ChemDB in PubChem.

Shared fields: tests on isolated targets

Lines come from different laboratories, so protocols vary.

structure,method,target,strain or isolate,agent,measure,tested at,value
Cc1ccc2nc(-c3ccc4nc(-c5ccc(NC(=O)c6ccccc6)cc5)sc4c3)sc2c1S(=O)(=O)O,ATP / substrate cleavage / absorbance,NS3 helicase,,Hepatitis C virus,IC50,,130 µM
O=C(O)c1sc(-c2ccccc2)cc1N(Cc1ccccc1)C(=O)CC1CCCC1,,NS3 ATPase,,Hepatitis C virus,IC50,,<5 µM
O=C(Nc1ccc2[nH]ncc2c1)c1cc(NCCN2CCOCC2)c(F)cc1F,,Reverse transcriptase,,Hepatitis B virus,inhibition,0.1 µg/mL,55%
CCCCCCCCCCCCCC1=C(O)C(=O)C=C(OC)C1=O,,Nonstructural protein 3 protease,,Hepatitis C virus,inhibition,100 µM,77.9%
C=CC1CC1(NC(=O)[C@@H]1C[C@@H](Oc2cc(-c3ccccc3)nc3cc(OC)ccc23)CN1C(=O)[C@@H](NC(=O)OC(C)(C)C)C(C)(C)C)C(=O)NS(=O)(=O)C1(C(=O)c2ccccc2)CC1,,NS3/NS4A protease,BMS,Hepatitis C virus,IC50,,0.05–0.5 µM
Cc1ccccc1-c1cc2c(C(F)(F)F)cc(C(F)(F)F)nc2n2c(-c3ccccc3)cnc12,luciferase / reporter gene,Envelope glycoprotein 2,JFH-1,Hepatitis C virus,IC50,,>20 µM
CC[C@H](C)[C@H](NC(=O)[C@H](CC(C)C)NC(=O)[C@@H](CCC(=O)O)NC(=O)[C@H](CC(=O)O)NC(C)=O)C(=O)N[C@H](C(=O)N[C@@H](CS)C(=O)O)C1CCCCC1,,NS3/NS4A serine protease,,Hepatitis C virus,IC50,,20.5 µM
O=C(O)CN1C(=O)/C(=C/c2ccc(-c3ccccc3)cc2)SC1=S,,Plasmin,,Hepatitis C virus,IC50,,7 µM
CC1O[C@@H](Oc2c(-c3ccc(O)c(O)c3)oc3cc(O)cc(O)c3c2=O)[C@H](O)[C@H](O)[C@H]1C,,Nonstructural protein 3 protease,,Hepatitis C virus,inhibition,100 µM,45.3%
O=[N+]([O-])c1ccc(-c2cnc3ccc4c(C(F)(F)F)cc(C(F)(F)F)nc4n23)cc1,luciferase / reporter gene,Envelope glycoprotein 2,JFH-1,Hepatitis C virus,IC50,,8.2 µM
C[C@H]1CCC[C@H](C)C1n1c(-c2cccc3c2OCO3)nc2cc(C(=O)NC3(C(=O)Nc4ccc(/C=C/C(=O)O)cc4)CCCC3)ccc21,,NS5B polymerase,,Hepatitis C virus,IC50,,0.5–5 µM
COc1cc(-c2cc(-c3ccc(Oc4ccccc4)cc3)nc3cc(C(=O)O)nn23)ccc1Cl,,RNA-dependent RNA polymerase,,Hepatitis C virus,IC50,,1–10 µM
N#Cc1c(C2CCCCC2)nc(SCC(=O)Nc2cc(Cl)cc(Cl)c2)[nH]c1=O,,NS3/NS4A helicase,,Hepatitis C virus,IC50,,<15 µM
O=C(O)c1sc(-c2ccccc2)cc1NS(=O)(=O)c1ccc(Cl)cc1,,NS3 ATPase,,Hepatitis C virus,IC50,,<5 µM
OCc1cnn2c(C3CCCCC3)c(-c3ccc(OCc4ccccc4)cc3)cnc12,,RNA-dependent RNA polymerase,,Hepatitis C virus,IC50,,>10 µM
CN(C)CCNc1cc(C(=O)Nc2ccc3[nH]ncc3c2)c(F)cc1F,,Reverse transcriptase,,Hepatitis B virus,inhibition,1 µg/mL,68%
CCCCc1ccc(NC(=O)CSc2nc(C3CCCCC3)c(C#N)c(=O)[nH]2)c(C)c1,,NS3/NS4A helicase,,Hepatitis C virus,IC50,,<15 µM
CC(NC(=O)c1ccc2c(c1)nc(-c1ccoc1)n2C1CCCCC1)C(=O)Nc1ccc(-c2ccc(C(=O)O)o2)cc1,,NS5B polymerase,,Hepatitis C virus,IC50,,<0.5 µM
CCN(C(=O)CCC(C)C)c1cc(-c2ccccc2)sc1C(=O)O,,NS3 ATPase,,Hepatitis C virus,IC50,,<5 µM
O=C(Nc1cnn2c(C3CCCCC3)c(-c3ccc(OCc4ccccc4)cc3)cnc12)c1ccccc1,,RNA-dependent RNA polymerase,,Hepatitis C virus,IC50,,>10 µM
Cc1ccccc1S(=O)(=O)Nc1cc(/C=C/c2ccc(Cl)cc2)sc1C(=O)O,,NS3 ATPase,,Hepatitis C virus,IC50,,5–20 µM
O=C(O)/C=C/c1ccc(N2CCOCC2)c(NC(=O)C2(NC(=O)c3ccc4c(c3)nc(-c3ccoc3)n4C3CCCCC3)CCCC2)c1,,NS5B polymerase,,Hepatitis C virus,IC50,,0.5–5 µM
Cc1ccc(-c2cnc3ccc4c(C(F)(F)F)cc(C(F)(F)F)nc4n23)cc1,luciferase / reporter gene,Envelope glycoprotein 2,,Hepatitis C virus,IC50,,9 µM
COc1ccc2c(O[C@@H]3C[C@@H](C(=O)NC4(C(=O)NS(=O)(=O)C5(C(=O)c6ccccc6)CC5)CC4)N(C(=O)[C@@H](NC(=O)OC(C)(C)C)C(C)(C)C)C3)cc(-c3ccccc3)nc2c1,,NS3/NS4A protease,BMS,Hepatitis C virus,IC50,,0.5–5 µM
O=C(O)c1sc(-c2ccccc2)cc1N(Cc1ccccc1Cl)C(=O)C1CCC1,,NS3 ATPase,,Hepatitis C virus,IC50,,5–20 µM
CC(C)Nc1cccnc1N1CCN(C(=O)c2ccc(C(=O)NC3CC3)cn2)CC1,,Reverse transcriptase,,Hepatitis B virus,IC50,,0.237 µg/mL
CS(=O)c1nc2ccc(NC(=O)C3(NC(=O)c4ccc5c(c4)nc(-c4ccoc4)n5C4CCCCC4)CCCC3)cc2s1,,NS5B polymerase,,Hepatitis C virus,IC50,,5–25 µM
O=C(O)c1cc2nc(-c3ccc(F)cc3)cc(-c3ccc(-c4ccccc4)cc3)n2n1,,RNA-dependent RNA polymerase,,Hepatitis C virus,IC50,,1–10 µM
N#Cc1c(-c2cccs2)nc(SCc2ccccc2)[nH]c1=O,,NS3/NS4A helicase,,Hepatitis C virus,IC50,,15–40 µM
COc1ccc2c(O[C@@H]3C[C@H]4C(=O)N[C@]5(C(=O)NS(=O)(=O)C6CC6)C[C@H]5/C=C\CCCCN(NC(=O)OC(C)(C)C)C(=O)[C@@H]4C3)cc(-c3ccccc3)nc2c1,,Nonstructural protein 3/4A,1a,Hepatitis C virus,Ki,,0.000007 µM
CC(Cc1ccccn1)Nc1cc(C(=O)Nc2ccc3cn[nH]c3c2)c(F)cc1F,,Reverse transcriptase,,Hepatitis B virus,inhibition,0.01 µg/mL,25%
C[C@@H](NC(=O)c1ccc2c(c1)nc(-c1ccoc1)n2C1CCCCC1)C(=O)Nc1ccc(OC(C)(C)C(=O)O)cc1,,NS5B polymerase,,Hepatitis C virus,IC50,,0.5–5 µM
CONC(=O)c1cnn2c(C3CCCCC3)c(-c3ccc(OCc4ccccc4)cc3)cnc12,,RNA-dependent RNA polymerase,,Hepatitis C virus,IC50,,>10 µM
C[C@H](Cn1cnc2c(N)ncnc21)OCP(=O)(O)O,ELISA,HBeAg,HepG 2.2.15,Hepatitis B virus,IC50,,>1740 µM
O=C(O)c1cc2nc(-c3ccoc3)c(C3CCCCC3)c(=O)n2[nH]1,,RNA-dependent RNA polymerase,,Hepatitis C virus,IC50,,1–10 µM
C=CC1C[C@@]1(NC(=O)[C@@H]1C[C@@H](Oc2cc(-c3ccccc3)nc3cc(OC)ccc23)CN1C(=O)[C@@H](NC(=O)COC)C(C)(C)C)C(=O)NS(=O)(=O)C1(Cc2ccccc2)CC1,,NS3/NS4A protease,BMS,Hepatitis C virus,IC50,,0.05–0.5 µM
CC(=O)Nc1nc(C[C@H](Cc2ccc(OCC(=O)O)cc2)NC(=O)c2ccc3c(c2)nc(-c2ccoc2)n3C2CCCCC2)cs1,,NS5B polymerase,,Hepatitis C virus,IC50,,1–5 µM
CC(C(=O)O)N(c1cc(-c2ccccc2)sc1C(=O)O)S(=O)(=O)c1ccc(Cl)cc1Cl,,NS3 ATPase,,Hepatitis C virus,IC50,,<5 µM
FC(F)(F)c1cccc(Oc2cccc(-c3cnc4c(-c5nn[nH]n5)cnn4c3C3CCCCC3)c2)c1,,RNA-dependent RNA polymerase,,Hepatitis C virus,IC50,,1–10 µM
C=CC1C[C@@]1(NC(=O)[C@@H]1C[C@@H](Oc2cc(-c3ccccc3)nc3cc(OC)ccc23)CN1C(=O)[C@@H](NC(=O)Oc1ccc(C(F)(F)F)cc1)C(C)(C)C)C(=O)NS(=O)(=O)C1(Cc2ccccc2)CC1,,NS3/NS4A protease,BMS,Hepatitis C virus,IC50,,0.05–0.5 µM
CCCCCCCCCCCC1=C(O)C(=O)C=C(O)C1=O,,Nonstructural protein 3 protease,,Hepatitis C virus,inhibition,100 µM,96.6%
CCC(NC(=O)[C@H](CC1CCCCC1)NC(=O)[C@@H](NC(C)=O)[C@@H](C)CC)C(=O)C(=O)C(=O)N[C@@H](Cc1ccc(OC)cc1)C(=O)O,,NS3/NS4A serine protease,,Hepatitis C virus,IC50,,8.4 µM
O=C(NCCSSCCNC(=O)/C(Cc1ccc(O)c(Br)c1)=N/O)/C(Cc1ccc(O)c(Br)c1)=N\O,fluorescence,NS3 helicase,,Hepatitis C virus,IC50,,17 µM
CC(NC(=O)c1ccc2c(c1)nc(-c1ccoc1)n2C1CCCCC1)C(=O)Nc1ccc(/C=C/C(=O)O)cc1,,NS5B polymerase,,Hepatitis C virus,IC50,,<0.5 µM
C=CCC(NC(=O)[C@H](C)NC(=O)[C@@H](NC(=O)[C@@H](NC(=O)[C@H](CC(=O)O)NC(=O)[C@H](CCC(=O)O)NC(C)=O)C(C)C)C(C)C)C(=O)C(=O)C(=O)N[C@@H](C)C(=O)O,,NS3/NS4A serine protease,,Hepatitis C virus,IC50,,0.44 µM
FC(F)(F)c1cc(C(F)(F)F)c2ccc3ncc(-c4ccc(Cl)cc4)n3c2n1,luciferase / reporter gene,Envelope glycoprotein 2,JFH-1,Hepatitis C virus,IC50,,11.1 µM
COC(=O)c1ccc(-c2ccc(NC(=O)C3(NC(=O)c4ccc5c(c4)nc(-c4ccoc4)n5C4CCCCC4)CCCC3)cc2)o1,,NS5B polymerase,,Hepatitis C virus,IC50,,0.5–5 µM
O=C(CN(c1cc(C(F)(F)F)ccc1Cl)S(=O)(=O)c1ccccc1)NCc1ccncc1,ELISA,HBeAg production,HepDE19,Hepatitis B virus,IC50,,4.55 µM
N#Cc1c(-c2ccc(Cl)cc2)nc(SCc2ccccc2)[nH]c1=O,,NS3/NS4A helicase,,Hepatitis C virus,IC50,,<15 µM
Cc1ccn(NC(=O)c2ccc(C(=O)N3CCN(c4ncccc4NC(C)C)CC3)nc2)n1,,Reverse transcriptase,,Hepatitis B virus,IC50,,0.124 µg/mL
O=C(O)[C@@H]1C[C@@H](O)CN1C(=O)c1cnn2c(C3CCCCC3)c(-c3ccc(F)cc3)cnc12,,RNA-dependent RNA polymerase,,Hepatitis C virus,IC50,,>10 µM
CCCC(NC(=O)[C@@H]1C[C@@H](OCc2ccccc2)CN1C(=O)[C@@H](NC(=O)[C@@H](NC(=O)[C@@H](CCC(=O)O)NC(=O)[C@H](CC(=O)O)NC(C)=O)[C@@H](C)CC)C(C)C)C(=O)N1Cc2ccccc2C[C@H]1C(=O)O,,NS3 protease/NS4A cofactor,,Hepatitis C virus,IC50,,8 µM
COCCCNC(=O)c1ccc(C(=O)N2CCN(c3ncccc3NCC(C)C)CC2)nc1,,Reverse transcriptase,,Hepatitis B virus,IC50,,0.123 µg/mL
O=C(Nc1ccc2cn[nH]c2c1)c1cc(NCCO)c(F)cc1F,,Reverse transcriptase,,Hepatitis B virus,inhibition,0.01 µg/mL,33%
FC(F)(F)c1cc(C(F)(F)F)c2cc(-c3ccccc3)c3ncc(-c4ccccc4)n3c2n1,luciferase / reporter gene,Envelope glycoprotein 2,JFH-1,Hepatitis C virus,IC50,,>20 µM
CC(C)CNc1cccnc1N1CCN(C(=O)c2ccc(C(=O)NC(C)(C)CO)cn2)CC1,,Reverse transcriptase,,Hepatitis B virus,IC50,,0.001 µg/mL
O=C(Nc1ccc2cn[nH]c2c1)c1cc(NCCc2ccccn2)c(F)cc1F,,Reverse transcriptase,,Hepatitis B virus,IC50,,0.1–1 µg/mL
Cc1ccccc1S(=O)(=O)Nc1cc(-c2ccc(C#N)s2)sc1C(=O)O,,NS3 ATPase,,Hepatitis C virus,IC50,,<5 µM
CC(C)Nc1cccnc1N1CCN(C(=O)c2ccc(C(=O)NCCO)cn2)CC1,,Reverse transcriptase,,Hepatitis B virus,IC50,,0.261 µg/mL
C=CCC(NC(=O)[C@H](C)NC(=O)[C@@H](NC(=O)[C@@H](NC(=O)[C@H](CC(=O)O)NC(=O)[C@H](CCC(=O)O)NC(C)=O)C(C)C)C(C)C)C(=O)C(=O)C(=O)N[C@@H](C)C(N)=O,,NS3/NS4A serine protease,,Hepatitis C virus,IC50,,6.5 µM

ICn: concentration for n% inhibition. Two numbers with a dash give a range or band. Inhibition is in % at the dose shown (toxicity tests: loss of growth or viability). Blank or dashed fields: not listed here.